Earlier results, collected in patent US7083961B1 (priority 2002, dated 2006).

By UniProt entry, the sequences of proteins in these tests, tags left out.
UniProt P0C0H6, whole entry: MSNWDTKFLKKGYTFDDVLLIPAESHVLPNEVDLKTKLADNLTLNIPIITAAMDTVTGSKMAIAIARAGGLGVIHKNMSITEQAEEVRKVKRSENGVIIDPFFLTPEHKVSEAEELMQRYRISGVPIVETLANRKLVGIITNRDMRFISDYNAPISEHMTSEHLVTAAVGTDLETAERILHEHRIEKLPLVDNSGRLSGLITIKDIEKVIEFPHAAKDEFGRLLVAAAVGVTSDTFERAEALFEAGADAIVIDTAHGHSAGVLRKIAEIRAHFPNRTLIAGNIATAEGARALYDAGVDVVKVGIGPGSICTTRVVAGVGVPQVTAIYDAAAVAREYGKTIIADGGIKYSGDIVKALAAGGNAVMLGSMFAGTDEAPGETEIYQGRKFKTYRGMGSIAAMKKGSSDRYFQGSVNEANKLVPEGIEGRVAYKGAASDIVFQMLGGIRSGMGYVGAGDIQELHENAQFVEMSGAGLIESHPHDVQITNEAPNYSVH

Target: S. pyogenes IMPDH (Streptococcus pyogenes, UniProt P0C0H6)

NC(=O)c1ncn([C@@H]2O[C@H](COP(=O)(O)O)[C@@H](O)[C@H]2O)n1
Ki: 6 µM
